Anti-infective test results gathered from many reports (values: NIAID ChemDB through PubChem).

Common to all: tests in culture; species: Candida albicans

Blank or dashed fields: not listed here.

smiles	read-out	strain	method	result
O=S(c1ccccc1)c1c(Sc2ccccc2)c(O)c2ccccc2c1O	EC50	-	-	>0.2 µg/mL
Cc1ccc2oc(C(=O)c3ccc(Cl)cc3)c(C)c2c1	MIC	Clinical isolate	-	50 µg/mL
CCCCCCCCCCOC[n+]1cccc(NCn2cnc3ccccc32)c1	MBC	ATCC 10231	-	290 µM
CCOC(=O)c1sc(SC)c(C#N)c1O	MIC	SKF	-	>100 µg/mL
Oc1cc2ccc1Oc1cccc(c1)CCc1ccc(O)c(c1)Oc1ccc(cc1)CC2	MIC	CA 02	broth dilution	>512 µg/mL
Cc1c(/C(=N\O)c2ccccc2)oc2ccccc12	MIC	NRRL Y-27077	-	25 µg/mL
C[C@H]1[C@H](O)[C@@H](C)/C=C/C=C/C=C/C=C/C=C/C=C/C=C/[C@H](O[C@@H]2O[C@H](C)[C@@H](O)[C@H](N)[C@@H]2O)C[C@@H]2O[C@](O)(C[C@@H](O)C[C@@H](O)CC[C@H](O)[C@@H](O)C[C@@H](O)CC(=O)O[C@H]1C)C[C@H](O)[C@H]2C(=O)O	MFC	Clinical isolate	visual reading	1 µg/mL
Cc1c(/C(=N/O)c2ccc(Cl)cc2)oc2ccc(Cl)cc12	MIC	NRRL Y-27077	-	5 µg/mL
O=C1C(Sc2ccccc2)=C(Sc2ccccc2)C(=O)c2ccccc21	EC50	-	-	>0.2 µg/mL
CCCCOC[n+]1cccc(NCn2nnc3ccccc32)c1	MBC	ATCC 10231	-	>1439 µM
CCC(C)n1ncn(-c2ccc(N3CCN(c4ccc(OC[C@H]5CO[C@](Cn6cncn6)(c6ccc(Cl)cc6Cl)O5)cc4)CC3)cc2)c1=O	MIC	E81022	-	0.025 µg/mL
CCCCCCCCOC[n+]1cccc(NCn2nnc3ccccc32)c1	MIC	ATCC 10231	-	620 µM
CCOc1cc2c(cc1F)n([O-])c(C)c(Cl)[n+]2=O	MIC	Clinical isolate 9	-	62.5 µg/mL
CSc1cc(-c2ccc(F)cc2)c(C(=O)O)s1	MIC	SKF	-	>100 µg/mL
Cc1c(S(=O)(=O)c2ccccc2)[n+](=O)c2cc(Cl)ccc2n1[O-]	MIC	Clinical isolate 8	-	31.25 µg/mL
Cc1ccc2oc(/C(=N/O)c3ccccc3)c(C)c2c1	MIC	NRRL Y-27077	-	12.5 µg/mL
CCCOCn1c[n+](CNC(=O)c2cccnc2)c2ccccc21	MIC	ATCC 10231	-	>1387 µM
COc1cc2c(=O)c3ccccc3oc2cc1O	MIC80	ATCC 663.90	-	31 µg/mL
Oc1ccc2c(c1)CCc1ccc(cc1)Oc1cc(ccc1O)CCc1ccc-2c(O)c1	MIC	CA10	broth dilution	32 µg/mL
COc1ccc(SC2=C(Sc3ccc(OC)cc3)C(=O)c3ccccc3C2=O)cc1	EC50	-	-	>0.2 µg/mL
COc1cc(O)c2c(c1)C(=O)c1c(cc3c(c1O)-c1c(cc(C)c(C(=O)NC(CO)C(=O)O)c1O)[C@H](OC1OC(C)C(N(C)C)C(OC4OCC(O)C(O)C4O)C1O)[C@H]3O)C2=O	MIC	IAM4888	-	6.3 µg/mL
Cc1ccc(C(C)C)cc1O	MLC	H37	-	0.16–0.32 µg/mL
CCOC(=O)c1sc(SC)c(C(=O)OCC)c1O	MIC	SKF	-	>100 µg/mL
O=C(c1ccc(Cl)cc1)c1oc2ccc(Cl)cc2c1Cn1ccnc1	MIC	NRRL Y-27077	-	25 µg/mL
CCOC(=O)c1sc2cc(-c3ccc(Cl)cc3)oc(=O)c2c1N	MIC	SKF	-	>100 µg/mL
CCCCCCCCCCCCCCCC1=N[C@H]1C(=O)OC	MIC	96-489	-	8 µg/mL
O=c1c2ccccc2oc2c(O)cccc12	MIC80	ATCC 663.90	-	62 µg/mL
CCOC(=O)c1sc2cc(-c3ccc([N+](=O)[O-])cc3)oc(=O)c2c1N	MIC	SKF	-	>100 µg/mL
CCCCCCCCCCCCC/C=C/C1=N[C@H]1C(=O)OC	MIC	UCD-FR1	-	8 µg/mL
O=C1C(Nc2ccccc2)=C(S(=O)c2ccccc2)C(=O)c2ccccc21	EC50	-	-	>0.2 µg/mL
CCC(C)CC(C)CCCCCCCCC(=O)N[C@H]1C[C@@H](O)[C@H](NCCN)NC(=O)[C@@H]2[C@@H](O)CCN2C(=O)[C@H]([C@H](O)CCN)NC(=O)[C@H]([C@H](O)[C@@H](O)c2ccc(O)cc2)NC(=O)[C@@H]2C[C@@H](O)CN2C(=O)[C@H]([C@@H](C)O)NC1=O	MIC50	SC5314	broth dilution / turbidity	0.06 µg/mL
CCCCCCCCCCCCCC#CC1=N[C@H]1C(=O)OC	MIC	96-489	-	2 µg/mL
Cc1c(Sc2ccccc2)[n+](=O)c2cc(C(F)(F)F)ccc2n1[O-]	MIC	Clinical isolate 15	-	15.6 µg/mL
CCCOC[n+]1cccc(NCn2nnc3ccccc32)c1	MBC	ATCC 10231	-	>1499 µM
O=[N+]([O-])c1ccc(Sc2c(S(=O)c3ccccc3)c(O)c3ccccc3c2O)cc1	EC50	-	-	>0.2 µg/mL
CC(C)N=C(N)c1ccc2nc(-c3ccc4c(c3)Cc3cc(-c5nc6ccc(C(N)=NC(C)C)cc6[nH]5)ccc3-4)[nH]c2c1	MFC	Isolate 3028 fluconazole-resistant	-	1.56 µg/mL
CCCCC/C=C\C1=N[C@H]1C(=O)OC	MIC	ATCC 14503	-	8–9 µg/mL
O=C(c1ccc(Cl)cc1)c1oc2ccc(Cl)cc2c1Cn1cncn1	MIC	Clinical isolate	-	25 µg/mL
CCOC(=O)c1sc(SC)c(C(=O)OC)c1O	MIC	SKF	-	12.5 µg/mL
O=c1c2ccccc2oc2ccc(O)cc12	MIC80	ATCC 663.90	-	250 µg/mL
CCOC(=O)c1sc(SC)cc1-c1ccc(C)cc1	MIC	SKF	-	>100 µg/mL
O=[n+]1c(Sc2ccccc2)c(CBr)n([O-])c2ccccc21	MIC	Clinical isolate 11	-	31.25 µg/mL
CCOC(=O)c1sc2cc(-c3cccnc3)oc(=O)c2c1N	MIC	SKF	-	>100 µg/mL
CCCCCCCC/C=C/CC/C=C/[C@H]1C[C@H]([C@](O)(CC(=O)O[C@@H](C(=O)O)[C@H](CC(=O)O)C(=O)O)C(=O)O)C(=O)O1	MIC	-	-	0.43 µM
O=C(c1ccccc1)c1oc2ccc(Cl)cc2c1Cn1ccnc1	MIC	Clinical isolate	-	25 µg/mL
COc1cc(Nc2nc3ccccc3nc2C(=O)O)cc(OC)c1OC	MIC	-	-	500 µg/mL
O/N=C(\c1ccccc1)c1oc2ccc(Cl)cc2c1Cn1ccnc1	MIC	Clinical isolate	-	25 µg/mL
Oc1ccc2cc1Oc1ccc(cc1)CCc1ccc(O)c(O)c1Oc1cccc(c1)CC2	MIC	CA 02	broth dilution	256 µg/mL

The first 2 rows once more:

{"smiles": "O=S(c1ccccc1)c1c(Sc2ccccc2)c(O)c2ccccc2c1O", "read-out": "EC50", "result": ">0.2 µg/mL"}
{"smiles": "Cc1ccc2oc(C(=O)c3ccc(Cl)cc3)c(C)c2c1", "read-out": "MIC", "strain": "Clinical isolate", "result": "50 µg/mL"}

ECn is the concentration giving n% inhibition of infection, replication or growth. Two numbers with a dash give a range or band. Rows are shuffled and stem from different studies. MIC50, MIC90 and the like: level of inhibition, or share of isolates inhibited.